A mixed list of measured activities; the numbers were collected in NIAID ChemDB.

Shared fields: tests in culture; species: HIV-1; cells: CEM; read-out: inhibition

An empty or dashed field is not shown.

SMILES,strain or isolate,method,setting,dose,value
Cc1cc(=O)c2c(O)c3c(O)cc(O)c4c5c(O)cc(O)c6c(O)c7c(=O)cc(C)c8c1c2c(c34)c(c65)c78,LAV-1,cytopathic effect / p24 / ELISA,-,1 µg/mL,99%
O=C(O)c1cc(Cc2ccc(O)c(C(=O)O)c2)ccc1O,IIIB,cytopathic effect / XTT,-,350 µM,0%
N#CC1=C(N)N2C(=C(C#N)C1c1ccccc1)Oc1ccccc12,-,cytopathic effect / XTT,-,2.01 µM,4.67%
O=C(O)C(SC1=NNC2(C(=O)N1)c1ccccc1-c1ccccc12)SC1=NNC2(C(=O)N1)c1ccccc1-c1ccccc12,-,cytopathic effect / XTT,-,20 µM,36.96%
CCOP(=O)(OCC)C(O)n1cc(-n2ccc(=O)[nH]c2=O)nn1,IIIB,-,-,100 µM,0%
C[C@H](CCCC(C)(C)O)[C@H]1CC[C@H]2[C@@H]3CC=C4C[C@@H](O)CC[C@]4(C)[C@H]3CC[C@]12C,IIIB,luciferase / single cycle,-,1 µM,>50%
Cc1cn([C@H]2C[C@H](N=[N+]=[N-])[C@@H](COP(=O)(O)OCCO[C@H]3O[C@H](CO)[C@@H](O)[C@H](O)[C@@H]3O)O2)c(=O)[nH]c1=O,LAV-Bru,RT activity,15 d,25 µM,98%
NC1=NNC2(C(=O)N1)c1ccccc1-c1ccccc12,-,cytopathic effect / XTT,-,200 µM,17%
CCOP(=O)(CCn1cc(N2C=CC(NC(C)=O)NC2=O)nn1)OCC,IIIB,-,-,100 µM,0%
N#C/C(=C1\SC(=O)CN1c1ccc(Cl)cc1)c1nc2ccccc2o1,-,cytopathic effect / XTT,-,20 µM,10.24%
Brc1ccccc1C1SCc2nc3ncccc3n21,RF,cytopathic effect / XTT,-,2.48 µM,13%
N#CC(C(=S)NCc1ccccc1)c1nc2ccccc2o1,-,cytopathic effect / XTT,-,20 µM,24.55%
Cc1nnc(N)nc1/C=C/c1ccc(N(C)C)cc1,-,cytopathic effect / XTT,-,0.6 µM,3.38%
CCCCCCCCC(=O)CCCCC(=O)O,-,cytopathic effect,-,10 µg/mL,34%
C=CC[C@H](NC(=O)[C@H](Cc1ccccc1)NS(=O)(=O)N1CCOCC1)C(=O)N[C@@H](CC1CCCCC1)[C@@H](O)C[C@H](C(=O)NCCCC)C(C)C,IIIB,cytopathic effect / XTT,-,4.3 µM,97%
Fc1ccccc1C1SCc2nc3ncccc3n21,RF,cytopathic effect / XTT,-,95.9 µM,17%
N#C/C(=C1\SC(=O)CN1c1ccccc1)c1nc2ccccc2o1,-,cytopathic effect / XTT,-,6.34 µM,4.26%
S=C1N=C(Cl)C2(NN1)c1ccccc1-c1ccccc12,-,cytopathic effect / XTT,-,20 µM,32.82%
Clc1cccc(Cl)c1C1SCc2nc3ncccc3n21,RF,cytopathic effect / XTT,-,63 µM,89%
CCCCCCCCCC(=O)NCCC(=O)O,-,cytopathic effect,-,1 µg/mL,4%
O=c1ccn(-c2cn(C(O)P(=O)(O)O)nn2)c(=O)[nH]1,IIIB,-,-,100 µM,0%
CCCCCCCCCCCCC(Br)C(=O)OC[C@H]1O[C@@H](n2cc(C)c(=O)[nH]c2=O)CC1O,-,cytopathic effect / XTT,-,2 µM,22.2%
CC(=O)NCCCCCCCCCCC(=O)O,-,cytopathic effect,-,1 µg/mL,6%
CC1(C)SCc2nc3ncccc3n21,RF,cytopathic effect / XTT,-,386 µM,41%
Cc1cn([C@H]2C[C@H](O)[C@@H](COC(=O)CCCCCCCCCCN=[N+]=[N-])O2)c(=O)[nH]c1=O,-,cytopathic effect / XTT,-,20 µM,16.3%
C[n+]1cn(-c2cn(C(O)P(=O)(O)O)nn2)c(=O)[nH]c1=O,IIIB,-,-,100 µM,0%
O=C1N=C2SC=C(NC(=S)Nc3ccccc3)N2NC12c1ccccc1-c1ccccc12,-,cytopathic effect / XTT,-,63 µM,35.23%
CC(=O)N1C(=O)CC(=O)N(c2nnc(C)c(/C=C/c3ccc(N(C)C)cc3)n2)C1=S,-,cytopathic effect / XTT,-,0.1 µM,3.99%
N#CC1=C(N)N2C(=C(C#N)C1c1ccc(Cl)cc1)Oc1ccccc12,-,cytopathic effect / XTT,-,0.635 µM,4.27%
O=c1ccn(-c2cn(CCCP(=O)(O)O)nn2)c(=O)[nH]1,IIIB,-,-,100 µM,0%
Cc1nnc(N2C(=O)/C(=C/c3ccc(Cl)cc3)N=C2c2ccccc2)nc1/C=C/c1ccc(N(C)C)cc1,-,cytopathic effect / XTT,-,20 µM,58.08%
O=P(O)(O)OP(=O)(O)OP(=O)(O)OP(=O)(O)OP(=O)(O)OP(=O)(O)OP(=O)(O)OP(=O)(O)OP(=O)(O)OP(=O)(O)OP(=O)(O)OP(=O)(O)OP(=O)(O)OP(=O)(O)OP(=O)(O)O,IIIB,cytopathic effect / MTT,-,33.3 µg/mL,60%
CCOP(=O)(OCC)C(O)Cn1cc(Cn2cnc3c(N)ncnc32)nn1,IIIB,-,-,100 µM,0%
CCCCCCCCCCCCCCCCOP(=O)(OCCO[C@@H]1O[C@H](CO)[C@@H](O)[C@H](O)[C@@H]1O)OC[C@H]1O[C@@H](n2cc(C)c(=O)[nH]c2=O)C[C@@H]1N=[N+]=[N-],LAV-Bru,RT activity,15 d,1 µM,71%
CCCCCCCCCCCCCC(=O)OC[C@H]1O[C@@H](n2cc(C)c(=O)[nH]c2=O)C[C@@H]1O,-,cytopathic effect / XTT,-,20 µM,6.2%
C=CCNC(=O)NC1=CSC2=NC(=O)C3(NN12)c1ccccc1-c1ccccc13,-,cytopathic effect / XTT,-,63 µM,16.15%
N[C@H]1CONC1=O,N1T,p24,-,10 µg/mL,85%

A second listing of 4 rows from above:

SMILES | strain or isolate | method | setting | dose | value
C[n+]1cn(-c2cn(C(O)P(=O)(O)O)nn2)c(=O)[nH]c1=O | IIIB | - | - | 100 µM | 0%
C=CCNC(=O)NC1=CSC2=NC(=O)C3(NN12)c1ccccc1-c1ccccc13 | - | cytopathic effect / XTT | - | 63 µM | 16.15%
N[C@H]1CONC1=O | N1T | p24 | - | 10 µg/mL | 85%
C=CC[C@H](NC(=O)[C@H](Cc1ccccc1)NS(=O)(=O)N1CCOCC1)C(=O)N[C@@H](CC1CCCCC1)[C@@H](O)C[C@H](C(=O)NCCCC)C(C)C | IIIB | cytopathic effect / XTT | - | 4.3 µM | 97%

Percent inhibition refers to the dose given; in toxicity tests it is the harm to the cells. Lines come from different laboratories, so protocols vary.